A mixed list of measured activities; the numbers were collected in NIAID ChemDB.

All rows: whole-cell or culture tests; species: HIV-1; read by: cytopathic effect / XTT; endpoint: EC50

ECn: concentration that inhibits the pathogen or its effect by n%. Blank or dashed fields: not listed here. Rows are shuffled and stem from different studies.

smiles,strain or isolate,setting,cell line,changes,result
CSC1N=S(=O)(c2ccccc2)c2ccccc2N1,IIIB,-,CEM + CEM-SS,-,32 µM
CCc1c(Sc2ccccn2)n(COCc2ccccc2)c(=O)[nH]c1=O,IIIB,-,U-937,-,0.02 µM
O=S1(c2ccccc2)=NC(=S)Nc2ccccc21,RF,-,AA5,-,2.88 µM
Cc1cn([C@H]2C[C@H](N=[N+]=[N-])[C@@H](CO)O2)c(=O)[nH]c1=O,NL4-3,-,CEM + CEM-SS,RT-V106A,0.004 µM
Cc1occc1C(=S)Nc1ccc(Cl)c(/C=N/OC(C)(C)C)c1,Oxathiin carboxanilide-resistant RT L100I,-,CEM + CEM-SS,RT-L100I,2 µM
Cc1cn([C@H]2C[C@H](N=[N+]=[N-])[C@@H](CO)O2)c(=O)[nH]c1=O,TP1,-,CEM + CEM-SS,-,0.0008 µM
Cc1ccnc2c1NC(=O)c1cccnc1N2C1CC1,ADA,clinical isolate,MM + M/M,-,0.2 µM
Cc1ccnc2c1NC(=O)c1cccnc1N2C1CC1,NL4-3,-,CEM + CEM-SS,RT-V106A,>2 µM
CCCc1cc(=O)oc2c3c(c4c(c12)OC(C)(C)C=C4)O[C@H](C)[C@@H](C)[C@@H]3O,UC38-R(RT-Y181C,-,CEM + CEM-SS,RT-Y181C,0.02 µM
Cc1ccnc2c1NC(=O)c1cccnc1N2C1CC1,4XAZT+L100I,-,CEM + CEM-SS,-,0.03 µM
Fc1cccc(F)c1C1SCc2nc3ccccc3n21,LAV,-,CEM + CEM-SS,-,0.52 µM
Cc1ccc(C(=O)Nc2ccc(S(=O)(=O)O)c3cc(S(=O)(=O)O)cc(S(=O)(=O)O)c23)cc1NC(=O)c1cccc(NC(=O)Nc2cccc(C(=O)Nc3cc(C(=O)Nc4ccc(S(=O)(=O)O)c5cc(S(=O)(=O)O)cc(S(=O)(=O)O)c45)ccc3C)c2)c1,RF,-,CEM + CEM-SS,-,>50 µM
O=S1(c2ccccc2)=NC(=S)Nc2cc(Cl)ccc21,IIIB,-,CEM + CEM-SS,-,23 µM
Fc1cccc(F)c1C1SCc2nc3ccccc3n21,IIIB,-,CEM,RT-V106N,7.63 µM
O=C1N(Cc2ccc(CO)cc2)[C@H](Cc2ccccc2)[C@H](O)[C@@H](O)[C@@H](Cc2ccccc2)N1Cc1ccc(CO)cc1,IIIB,-,MT-4,PR-G48V L90M,0.05 µM
Cc1cn([C@H]2C[C@H](N=[N+]=[N-])[C@@H](CO)O2)c(=O)[nH]c1=O,CLADE D,-,PBMC,-,0.001 µM
Nc1ccn([C@H]2CC[C@@H](CO)O2)c(=O)n1,RF,-,CEM + CEM-SS,-,0.11 µM
Cc1cn([C@H]2C[C@H](N=[N+]=[N-])[C@@H](CO)O2)c(=O)[nH]c1=O,HXB2-D WT,-,MT-2,-,0.14 µM
Cc1ccnc2c1NC(=O)c1cccnc1N2C1CC1,NL4-3,-,CEM + CEM-SS,RT-K103N,>2 µM
Cc1cn([C@H]2C[C@H](N=[N+]=[N-])[C@@H](CO)O2)c(=O)[nH]c1=O,SK1,-,CEM + CEM-SS,-,0.009 µM
Fc1cccc(F)c1[C@H]1SCc2nc3ccccc3n21,IIIB,-,CEM,RT-K103N,≥6.9 µM
C/C=C/CSc1cc(NC(=S)c2ccsc2C)ccc1Cl,NL4-3 (RT V108I),-,CEM + CEM-SS,RT-V108I,0.2 µM
Cc1cn([C@H]2C=C[C@@H](CO)O2)c(=O)[nH]c1=O,Site-directed mutant,-,MT-2,RT-K65R Y115F M184V,8.71 µM
Cc1cn([C@H]2C[C@H](N=[N+]=[N-])[C@@H](CO)O2)c(=O)[nH]c1=O,IIIB,-,CEM + CEM-SS,RT-Y181C,0.03 µM

The first 3 rows once more:

smiles	strain or isolate	setting	cell line	changes	result
CSC1N=S(=O)(c2ccccc2)c2ccccc2N1	IIIB	-	CEM + CEM-SS	-	32 µM
CCc1c(Sc2ccccn2)n(COCc2ccccc2)c(=O)[nH]c1=O	IIIB	-	U-937	-	0.02 µM
O=S1(c2ccccc2)=NC(=S)Nc2ccccc21	RF	-	AA5	-	2.88 µM